Pooled drug test results. Numbers come from NIAID ChemDB, via PubChem.

All rows: tests in culture; species: HIV-1

An empty or dashed field is not shown. Conditions beyond the fields shown may differ between rows. ECn is the concentration giving n% inhibition of infection, replication or growth.

O=C1c2ccccc2N(Cc2ccc(Cl)cc2)S(=O)(=O)N1Cc1ccccc1 ; endpoint: EC50 ; strain or isolate: IIIB ; cells: MT-4 ; read by: cytopathic effect ; value: >50 µM
CC(C)=CCN1Cc2cc(Cl)cc3[nH]c(=O)n(c23)C[C@@H]1C ; changes: RT-L100I ; endpoint: EC50 ; strain or isolate: IIIB ; cells: MT-4 ; read by: cytopathic effect / XTT ; value: >22 µM
COc1c(Cl)ccc2c1[C@@](C#Cc1cccnc1)(C(F)(F)F)NC(=O)N2 ; changes: RT-K103N ; endpoint: EC90 ; cells: MT-4 ; read by: p24 ; value: 0.147 µM
Cc1cc(=O)oc2c3c(c(C(Br)Br)cc12)OC(C)(C)[C@H](OC(=O)C12CCC(C)(C(=O)O1)C2(C)C)[C@@H]3OC(=O)C12CCC(C)(C(=O)O1)C2(C)C ; endpoint: EC50 ; strain or isolate: IIIB ; cells: PBMC ; read by: p24 ; value: 0.0215 µg/mL
C#C[C@@H](O)C1=C[C@@H](n2cnc3c(N)ncnc32)[C@H](O)[C@@H]1O ; endpoint: EC50 ; cells: HeLa CD4+/TAT+ + HeLa ; read by: β-galactosidase ; value: 38 µM
NC1=NC(N)c2nc(-c3ccccn3)c(-c3ccccn3)nc2N1 ; endpoint: EC50 ; strain or isolate: IIIB ; cells: MT-4 ; read by: cytopathic effect / MTT / absorbance ; value: >3.23 µM
CCOc1ccc(F)c(CCNC(=S)Nc2ncc(C(F)(F)F)s2)c1Cl ; changes: RT-Y181C ; endpoint: EC50 ; strain or isolate: IIIB ; cells: MT-4 ; read by: cytopathic effect / XTT ; value: >2 µM
O=C1c2ccccc2N(Cc2ccccc2)S(=O)(=O)N1Cc1ccccc1 ; endpoint: EC50 ; strain or isolate: IIIB ; cells: MT-4 ; read by: cytopathic effect ; value: ≥40 µM
Cc1nc(CCCCCCC(=O)c2ccccc2)n2nc(NCCCCCCCCCCCCN)ccc12 ; endpoint: EC50 ; strain or isolate: IIIB ; cells: MT-4 ; read by: RT activity ; value: >10 µM
CN1CCN(CCSc2nc(-c3ccc4ccccc4c3)c3ccccc3n2)CC1 ; endpoint: EC50 ; strain or isolate: LAV ; cells: PBMC ; read by: RT activity ; value: 2.6 µM
O=S1(=O)N=C(OCc2ccccc2)c2ccccc2N1Cc1ccccc1 ; endpoint: EC50 ; strain or isolate: IIIB ; cells: MT-4 ; read by: cytopathic effect ; value: 15 µM
Nc1[nH]c(=O)nc2nc(-c3ccccn3)c(-c3ccccn3)nc12 ; endpoint: EC50 ; strain or isolate: IIIB ; cells: MT-4 ; read by: cytopathic effect / MTT / absorbance ; value: >75.34 µM
CN(C)CCSc1nccc(-c2ccc(-c3ccnc(SCCN(C)C)n3)s2)n1 ; endpoint: EC50 ; strain or isolate: LAV ; cells: PBMC ; read by: RT activity ; value: 1.4 µM
CC1(C)Oc2ccc3cc(CBr)c(=O)oc3c2[C@@H](OC(=O)C23CCC(C)(C(=O)O2)C3(C)C)[C@H]1OC(=O)C12CCC(C)(C(=O)O1)C2(C)C ; endpoint: EC50 ; strain or isolate: IIIB ; cells: PBMC ; read by: p24 ; value: 0.0854 µg/mL
Cc1c(-c2cccc(SCCN(C)C)c2)ncnc1-c1cccc(SCCN(C)C)c1 ; endpoint: EC50 ; strain or isolate: LAV ; cells: PBMC ; read by: RT activity ; value: 6 µM
C=C1CN(S(=O)(=O)c2ccc(C)cc2)CCCN(Cc2ccccc2)CCCN(S(=O)(=O)c2ccc(C)cc2)C1 ; endpoint: EC50 ; strain or isolate: CI #17 ; cells: PBMC ; read by: p24 ; value: 0.86 µg/mL
CC(=O)OCc1cc2ccc3c(c2oc1=O)[C@@H](OC(=O)[C@@]12CC[C@@](C)(C(=O)O1)C2(C)C)[C@@H](OC(=O)[C@@]12CC[C@@](C)(C(=O)O1)C2(C)C)C(C)(C)O3 ; endpoint: EC50 ; strain or isolate: IIIB ; cells: PBMC ; read by: p24 ; value: 0.00103 µg/mL
Cc1nc(CCCCCCC(=O)c2ccccc2)n2nc(Cl)ccc12 ; endpoint: EC50 ; strain or isolate: Nevirapine-resistant ; cells: CEM + CEM-SS ; read by: RT activity ; value: >10 µM
O=C(CCCCCCC(=O)Nc1cc(S(=O)(=O)O)cc2cc(S(=O)(=O)O)cc(O)c12)Nc1cc(S(=O)(=O)O)cc2cc(S(=O)(=O)O)cc(O)c12 ; endpoint: EC50 ; strain or isolate: IIIB ; cells: MT-4 ; read by: syncytia ; value: <20 µM
O=C1Nc2ccc(Cl)cc2[C@@](C#CC2CC2)(C(F)(F)F)N1 ; changes: RT-K103N ; endpoint: EC90 ; cells: MT-4 ; read by: p24 ; value: 0.01 µM
Cc1ccc(C)n1-c1ccc(C(=O)O)c(O)c1 ; endpoint: EC90 ; strain or isolate: RU570 R5 CLADE G ; cells: PBMC + MT-2 ; read by: p24 ; value: 209 µM
Cc1cc(=O)oc2c3c(c(CN)cc12)OC(C)(C)[C@H](OC(=O)C12CCC(C)(C(=O)O1)C2(C)C)[C@@H]3OC(=O)C12CCC(C)(C(=O)O1)C2(C)C ; endpoint: EC50 ; strain or isolate: IIIB ; cells: PBMC ; read by: p24 ; value: 0.001 µg/mL
O=C1Nc2ccc(Cl)cc2[C@@](/C=C/C2CC2)(C(F)(F)F)N1 ; changes: RT-K103N ; endpoint: EC90 ; cells: MT-4 ; read by: p24 ; value: 0.027 µM
Cc1cn([C@H]2C=C[C@@H](CO)O2)c(=O)[nH]c1=O ; endpoint: EC50 ; strain or isolate: LAI ; cells: CEM + CEM TK- ; read by: RT activity ; value: 30 µM
CC1(C)O[C@H]2[C@H](n3cnc4c(N)ncnc43)O[C@](F)(CI)[C@H]2O1 ; endpoint: EC50 ; value: <10 µM
COc1ncc(OC)c2c(C(=O)C(=O)N3CCN(C(=O)c4ccccc4)CC3)c[nH]c12 ; endpoint: EC50 ; strain or isolate: BaL ; cells: PM1 ; read by: p24 / ELISA ; value: 0.023 µM
Cc1nc(CCCCCCC(=O)c2ccccc2)n2nc(NCCCCCCNCc3cn([C@H]4C=C[C@@H](CO)O4)c(=O)[nH]c3=O)ccc12 ; endpoint: EC50 ; strain or isolate: LAI ; cells: CEM + CEM-SS ; read by: RT activity ; value: 0.05 µM
Cc1ccc(-c2cccc(-c3ccc(CNCCN(C)C)cc3)n2)cc1 ; endpoint: EC50 ; strain or isolate: LAV ; cells: PBMC ; read by: RT activity ; value: 4 µM
Nc1ncnc2c1ncn2[C@@H]1C=C(CO)[C@@H](O)[C@H]1O ; endpoint: EC50 ; cells: HeLa CD4+/TAT+ + HeLa ; read by: β-galactosidase ; value: 1.9 µM
O=c1[nH]c(=S)c2nc(-c3ccccn3)c(-c3ccccn3)nc2[nH]1 ; endpoint: EC50 ; strain or isolate: IIIB ; cells: MT-4 ; read by: cytopathic effect / MTT / absorbance ; value: >112 µM
Cc1cn([C@H]2C[C@H](N=[N+]=[N-])[C@@H](CO)O2)c(=O)[nH]c1=O ; endpoint: EC90 ; strain or isolate: IIIB ; cells: MT-4 ; read by: MTT ; value: 0.0064 µM
CSCSc1nc(Cc2c(F)cccc2F)c(C)c(=O)[nH]1 ; endpoint: EC50 ; strain or isolate: IIIB ; cells: MT-4 ; read by: cytopathic effect / MTT ; value: 0.1 µM
C[C@@H](O)C1=C[C@@H](n2cnc3c(N)ncnc32)[C@H](O)[C@@H]1O ; endpoint: EC50 ; cells: HeLa CD4+/TAT+ + HeLa ; read by: β-galactosidase ; value: 3.5 µM
Cc1occc1C(=O)Nc1ccc(Cl)c(SCC=C(Cl)Cl)c1 ; changes: RT-K103N ; endpoint: EC50 ; strain or isolate: TIBO R82913-resistant (RT K103N) ; cells: CEM ; read by: syncytia ; value: 2 µg/mL
O=C1c2ccccc2N(Cc2ccccc2Cl)S(=O)(=O)N1Cc1ccccc1Cl ; endpoint: EC50 ; strain or isolate: IIIB ; cells: MT-4 ; read by: cytopathic effect ; value: ≥2 µM
COc1ccc(NC(=O)c2ccoc2C)cc1OCC=C(Cl)Cl ; changes: RT-L100I ; endpoint: EC50 ; strain or isolate: TIBO R82150-resistant (RT L100I) ; cells: CEM ; read by: syncytia ; value: 5 µg/mL
CC1=C/C(=C\[C@H](C)[C@]23OC(=O)C[C@]2(C)[C@H]2C[C@]4(O)C[C@@H]5C(=O)OC(C)(C)[C@]5(C)CC[C@@H]4[C@H]2O3)OC1=O ; endpoint: EC50 ; read by: cytopathic effect ; value: 27.54 µg/mL
CN1CCN(CCSc2nccc(-c3cccs3)n2)CC1 ; endpoint: EC50 ; strain or isolate: LAV ; cells: PBMC ; read by: RT activity ; value: 16.9 µM
Cc1cc(=O)oc2c3c(c(CBr)cc12)OC(C)(C)[C@H](OC(=O)C12CCC(C)(C(=O)O1)C2(C)C)[C@@H]3OC(=O)C12CCC(C)(C(=O)O1)C2(C)C ; endpoint: EC50 ; strain or isolate: IIIB ; cells: PBMC ; read by: p24 ; value: 0.025 µg/mL
CC1=C(C(=O)Nc2ccc(Cl)c(OCC=C(Cl)Cl)c2)SCCO1 ; changes: RT-Y181C ; endpoint: EC50 ; strain or isolate: Pyridone-resistant (RT Y181C) ; cells: CEM ; read by: syncytia ; value: 2 µg/mL
Cc1nc(CCCCCCC(=O)c2ccccc2)n2nc(NCCCCCCCCCCNCc3cn([C@H]4C=C[C@@H](CO)O4)c(=O)[nH]c3=O)ccc12 ; endpoint: EC50 ; strain or isolate: LAI ; cells: CEM + CEM TK- ; read by: RT activity ; value: 8.5 µM
C[C@H]1[C@@H](OC(=O)CCC(=O)O)O[C@@H]2O[C@@]3(C)CC[C@H]4[C@H](C)CC[C@@H]1[C@@]24OO3 ; endpoint: EC50 ; strain or isolate: NL4-3 ; cells: Jurkat cells ; read by: p24 ; value: ~0.6 µM
O=C1Nc2ccc(Cl)c(O)c2[C@@](C#Cc2ccccc2)(C(F)(F)F)N1 ; changes: RT-K103N ; endpoint: EC50 ; cells: MT-4 ; read by: p24 ; value: <0.03 µM
CC(=O)N(C)c1nc(C(=O)NCc2ccc(F)cc2)c(O)c2ncccc12 ; endpoint: EC50 ; conditions: 10% FBS ; cells: MT-4 ; read by: p24 ; value: <0.125 µM
S=c1nc[nH]c2nc(-c3ccccn3)c(-c3ccccn3)nc12 ; endpoint: EC50 ; strain or isolate: IIIB ; cells: MT-4 ; read by: cytopathic effect / MTT / absorbance ; value: >115 µM
Cc1cncnc1-c1ccc(SCCN(C)C)cc1 ; endpoint: EC50 ; strain or isolate: LAV ; cells: PBMC ; read by: RT activity ; value: 31.3 µM
COc1ccc(NC(=S)c2ccoc2C)cc1OCC=C(Cl)Cl ; changes: RT-L100I ; endpoint: EC50 ; strain or isolate: TIBO R82150-resistant (RT L100I) ; cells: CEM ; read by: syncytia ; value: 0.075 µg/mL
O=c1[nH]cnc2ncc(-c3cccs3)nc12 ; endpoint: EC50 ; strain or isolate: IIIB ; cells: MT-4 ; read by: cytopathic effect / MTT / absorbance ; value: >48.22 µM

6 of the rows above, restated:

structure	changes	endpoint	conditions	strain or isolate	cells	read by	value
CCOc1ccc(F)c(CCNC(=S)Nc2ncc(C(F)(F)F)s2)c1Cl	RT-Y181C	EC50	-	IIIB	MT-4	cytopathic effect / XTT	>2 µM
O=C1c2ccccc2N(Cc2ccc(Cl)cc2)S(=O)(=O)N1Cc1ccccc1	-	EC50	-	IIIB	MT-4	cytopathic effect	>50 µM
Cc1cc(=O)oc2c3c(c(C(Br)Br)cc12)OC(C)(C)[C@H](OC(=O)C12CCC(C)(C(=O)O1)C2(C)C)[C@@H]3OC(=O)C12CCC(C)(C(=O)O1)C2(C)C	-	EC50	-	IIIB	PBMC	p24	0.0215 µg/mL
Cc1nc(CCCCCCC(=O)c2ccccc2)n2nc(Cl)ccc12	-	EC50	-	Nevirapine-resistant	CEM + CEM-SS	RT activity	>10 µM
CN1CCN(CCSc2nccc(-c3cccs3)n2)CC1	-	EC50	-	LAV	PBMC	RT activity	16.9 µM
O=C(CCCCCCC(=O)Nc1cc(S(=O)(=O)O)cc2cc(S(=O)(=O)O)cc(O)c12)Nc1cc(S(=O)(=O)O)cc2cc(S(=O)(=O)O)cc(O)c12	-	EC50	-	IIIB	MT-4	syncytia	<20 µM